The values below are quoted from earlier work in patent US20120149888A1, “SYNTHESIS OF ARA-2'-O-METHYL-NUCLEOSIDES, CORRESPONDING PHOSPHORAMIDITES AND OLIGONUCLEOTIDES INCORPORATING NOVEL MODIFICATIONS FOR BIOLOGICAL APPLICATION IN THERAPEUCTICS, DIAGNOSTICS, G- TETRAD FORMING OLIGONUCLEOTIDES AND APTAMERS” (priority 2009, published 2012).

One data set concerns P815-E176. To be noted: 5-Fluorouracil-resistant P815-E176.
Another data set relates to L1210 TG/R. To be noted: Thioguanine-resistant L1210 TG/R.

In the case of “6-hydroxy-9-{3-[bis(2″-chloroethyl)amino}purine”, the “Response to chemotherapeutic drugs: collaterally sensitive” value with P815-E176 and with L1210 TG/R was “No. 30020” throughout.
